Anti-infective test results gathered from many reports (values: NIAID ChemDB through PubChem).

Shared fields: target-level tests

ICn: concentration for n% inhibition.

structure	target	strain	endpoint	tested at	read by	organism	value
CC(C)Nc1cccnc1N1CCN(C(=O)c2ccc(C(=O)NC3CCCC3)cn2)CC1	Reverse transcriptase		IC50			Hepatitis B virus	0.029 µg/mL
COc1nc(NCCCn2ccnc2)nc(Nc2ccc3[nH]ncc3c2)n1	Nonstructural protein 5B		inhibition	1 µg/mL		Hepatitis C virus	52%
CCn1c(-c2ccccc2OCc2ccc(Cl)cc2)nc2ccccc21	NS5B RdRp activity	1b	inhibition	100 µM		Hepatitis C virus	0%
O=C(O)c1cc2nc(-c3ccccc3)cc(-c3ccc(-c4ccccc4)cc3)n2n1	RNA-dependent RNA polymerase		IC50			Hepatitis C virus	1–10 µM
O=C(O)c1sc(-c2ccccc2)cc1NS(=O)(=O)c1ccc([N+](=O)[O-])cc1	NS3 ATPase		IC50			Hepatitis C virus	5–20 µM
C=C1[C@H](COP(=O)(O)OP(=O)(O)OP(=O)(O)O)[C@@H](O)C[C@@H]1n1cnc2c(=O)[nH]c(N)nc21	DNA polymerase	Polymerase mutant M550V	IC50			Hepatitis B virus	0.0042 µM
COc1ccc(-c2ccc(Cl)cc2)c(-c2ccc3cc(-c4nc5cc(C(=O)O)ccc5n4C4CCNCC4)ccc3n2)c1	NS5B polymerase		inhibition	100 µM		Hepatitis C virus	77.35%
CNC(=O)c1c(-c2ccc(Br)cc2)oc2ccc(OC)cc12	Nonstructural protein 5B		IC50			Hepatitis C virus	≤0.5 µM
CC(C)Nc1cccnc1N1CCN(C(=O)c2ccc(C(=O)NCc3ccccn3)cn2)CC1	Reverse transcriptase		IC50			Hepatitis B virus	0.007 µg/mL
c1ccc2[nH]c(-c3ccncc3)nc2c1	NS5B RdRp activity	1b	inhibition	100 µM		Hepatitis C virus	7.5%
COCC(=O)N(Cc1ccccc1)c1cc(-c2ccccc2)sc1C(=O)O	NS3 ATPase		IC50			Hepatitis C virus	<5 µM
CC[C@@H]1C[C@]1(NC(=O)[C@@H]1C[C@@H](Oc2cc(-c3csc(NC(C)C)n3)nc3c(Cl)c(OCCN4CCOCC4)ccc23)CN1C(=O)[C@@H](NC(=O)OC1C[C@@H]2C[C@@H]2C1)C(C)(C)C)C(=O)O	Nonstructural protein 3 protease	gt 3	Ki		fluorescence	Hepatitis C virus	0.319 µM
C=CC1CC1(NC(=O)[C@@H]1C[C@@H](Oc2cc(-c3ccccc3)nc3cc(OC)ccc23)CN1C(=O)[C@@H](NC(=O)OC(C)(C)C)C(C)(C)C)C(=O)NS(=O)(=O)C1(CC2CC2)CC1	NS3/NS4A protease	BMS	IC50			Hepatitis C virus	<0.05 µM
CC(=O)N[C@@H](CC(=O)O)C(=O)N[C@H](CC(C(=O)O)C(=O)O)C(=O)N[C@H](C(=O)N[C@@H](CCC(=O)O)C(=O)N[C@@H](Cc1c[nH]c2ccccc12)C(=O)N[C@@H](CS)C(=O)C(=O)O)C(c1ccccc1)c1ccccc1	NS3/NS4A serine protease		Ki			Hepatitis C virus	0.00003 µM
O=C(O)c1ccc2c(c1)nc(-c1ccc3nc(-c4cccc(O)c4)ccc3c1)n2C1CCCCC1	NS5B polymerase		inhibition	100 µM		Hepatitis C virus	101%
O=C(O)c1cnn2c(C3CCCCC3)c(-c3ccc(I)cc3)cnc12	RNA-dependent RNA polymerase		IC50			Hepatitis C virus	1–10 µM
O=C(/C=C/c1ccc(O)c(O)c1)O[C@H]1[C@H](O)C[C@](O)(C(=O)O)C[C@H]1OC(=O)/C=C/c1ccc(O)c(O)c1	HBeAg	HepG 2.2.15	inhibition	50 µg/mL	ELISA	Hepatitis B virus	15.02%
c1cncc(COc2ccc(-c3cnc4c(-c5nn[nH]n5)cnn4c3C3CCCCC3)cc2)c1	RNA-dependent RNA polymerase		IC50			Hepatitis C virus	<1 µM
CC(=O)N[C@@H](CC(=O)O)C(=O)N[C@H](CC(C(=O)O)C(=O)O)C(=O)N[C@@H](Cc1c[nH]c2cccc(C(=O)O)c12)C(=O)N[C@@H](CCC(=O)O)C(=O)N[C@@H](CC1CCCCC1)C(=O)N[C@@H](CS)C(=O)C(=O)O	NS3/NS4A serine protease		Ki			Hepatitis C virus	0.00002 µM
CC(C)Nc1cccnc1N1CCN(C(=O)c2ccc(C(=O)NC(C)(C)CO)cn2)CC1	Reverse transcriptase		IC50			Hepatitis B virus	0.001 µg/mL
COc1ccc(-c2cc(-c3ccc(OCc4ccccc4)cc3)nc3cc(C(=O)O)nn23)cc1Cl	RNA-dependent RNA polymerase		IC50			Hepatitis C virus	1–10 µM
Cc1ccc(C(=O)N(C)c2cc(-c3ccc(Cl)cc3)sc2C(=O)O)cc1	NS3 ATPase		IC50			Hepatitis C virus	5–20 µM
CC(C)C[C@H](NC(=O)C(=O)OC(C)(C)C)C(=O)N1C[C@@H](n2cc(-c3ccccc3)nn2)C[C@H]1C(=O)N[C@H](Cc1ccccc1)C(=O)NS(=O)(=O)C1CC1	Nonstructural protein 3/4A		IC50		FRET	Hepatitis C virus	>100 µM
CCCCOC(=O)c1ccc(CCCC)nc1N(C)c1ccc(N2CCOCC2)cc1	NS5B polymerase		inhibition	0.1 µg/mL		Hepatitis C virus	30–55%
c1ccc(COc2ccccc2-c2nc3ccccc3[nH]2)cc1	NS5B RdRp activity	1b	inhibition	100 µM		Hepatitis C virus	0%
CC(=O)N[C@@H](CC(=O)O)C(=O)N[C@H](C(=O)CCC(=O)O)C(=O)N[C@H](C(=O)N[C@@H](CCC(=O)O)C(=O)N[C@@H](CC1CCCCC1)C(=O)N[C@@H](CS)C(=O)C(=O)O)C(c1ccccc1)c1ccccc1	NS3/NS4A serine protease		Ki			Hepatitis C virus	0.87 µM
CNC(=O)c1c(-c2ccc(F)cc2)oc2cc(S(=O)(=O)N3CCOCC3)c(OC(C)C)cc12	Nonstructural protein 5B		IC50			Hepatitis C virus	≤0.5 µM
COc1nc(Nc2ccc3cn[nH]c3c2)nc(N2CCN(C)CC2)n1	Nonstructural protein 5B		inhibition	1 µg/mL		Hepatitis C virus	0%
COC(CNC(=O)c1ccc(C(=O)N2CCN(c3ncccc3NC(C)C)CC2)nc1)OC	Reverse transcriptase		IC50			Hepatitis B virus	0.005 µg/mL
CCOC(=O)c1cnn2c(-c3ccccc3)cc(-c3ccc(Cl)cc3)nc12	RNA-dependent RNA polymerase		IC50			Hepatitis C virus	>10 µM
COCCNC(=O)c1ccc(C(=O)N2CCN(c3ncccc3NCC(C)C)CC2)nc1	Reverse transcriptase		IC50			Hepatitis B virus	0.007 µg/mL
CCOC(=O)c1cc2nc(-c3ccc(F)cc3)cc(-c3ccc(Cl)cc3)n2n1	RNA-dependent RNA polymerase		IC50			Hepatitis C virus	>10 µM
O=C(O)c1ccc2c(c1)nc(-c1ccc3nc(-c4cc(C(=O)N5CCCC5)ccc4-c4ccc([N+](=O)[O-])cc4)ccc3c1)n2C1CCCCC1	NS5B polymerase		inhibition	33 µM		Hepatitis C virus	102%
Clc1ccc(-c2nc3ccccc3[nH]2)cc1Cl	NS5B RdRp activity	1b	inhibition	100 µM		Hepatitis C virus	7.1%
CC(C)C[C@@H](NC(=O)CC1(CC(=O)O)CCCC1)C(=O)N[C@H](CC(F)F)C(=O)NCCc1ccc(C(=O)O)cc1Cl	NS3 serine protease		IC50			Hepatitis C virus	21 µM
C=CC1C[C@@]1(NC(=O)[C@@H]1C[C@@H](Oc2cc(-c3ccccn3)nc3cc(OC)ccc23)CN1C(=O)[C@@H](NC(=O)OC(C)(C)C)C(C)(C)C)C(=O)NS(=O)(=O)C1(Cc2ccccc2)CC1	NS3/NS4A protease	BMS	IC50			Hepatitis C virus	<0.05 µM
Cc1cccc(-c2cc(NS(=O)(=O)c3ccccc3C)c(C(=O)O)s2)c1	NS3 ATPase		IC50			Hepatitis C virus	<5 µM
CCOc1cc(-c2ccccc2)nc2ccc(-c3nc4cc(C(=O)O)ccc4n3C3CCCCC3)cc12	NS5B polymerase		inhibition	100 µM		Hepatitis C virus	99.18%
CN(C)c1ccc(-c2nc3ccccc3[nH]2)cc1	NS5B RdRp activity	1b	inhibition	100 µM		Hepatitis C virus	14.6%
CC(=O)N[C@@H](CC(=O)O)C(=O)N[C@H](CC(C(=O)O)C(=O)O)C(=O)N[C@H](C(=O)N[C@@H](CCC(=O)O)C(=O)N[C@@H](Cc1ccccc1)C(=O)N[C@@H](CS)C(=O)C(=O)O)C(c1ccccc1)c1ccccc1	NS3/NS4A serine protease		Ki			Hepatitis C virus	0.00004 µM
CCSc1nc(Nc2ccc(N(CC)CC)cc2)cc(N2CCN(C(=O)c3ncc(C)cn3)CC2)n1	NS5B polymerase		inhibition	0.1 µg/mL		Hepatitis C virus	30–55%
COc1nc(Nc2ccc3cn[nH]c3c2)nc(NN2CCN(C)CC2)n1	DNA polymerase		inhibition	1 µg/mL		Hepatitis B virus	54%
O=C(O)c1cc2nc(-c3ccc(OCc4ccccc4)cc3)c(C3CCCCC3)cn2n1	RNA-dependent RNA polymerase		IC50			Hepatitis C virus	1–10 µM
Cc1cc(-c2nc3cc(C(=O)O)ccc3n2C2CCCCC2)cc2ccc(-c3ccccc3)nc12	NS5B polymerase		inhibition	100 µM		Hepatitis C virus	99.28%
CNC(=O)c1c(-c2ccc(F)cc2)oc2cc(N3CCCCC3)c(OC(C)C)cc12	Nonstructural protein 5B		IC50			Hepatitis C virus	≤0.5 µM
Cc1ccccc1S(=O)(=O)Nc1cc(-c2ccc(-c3ccc(Br)cc3)cc2)sc1C(=O)O	NS3 ATPase		IC50			Hepatitis C virus	<5 µM
COc1nc(Nc2ccc3[nH]ncc3c2)nc(N2CCC(C(N)=O)CC2)n1	DNA polymerase		inhibition	0.01 µg/mL		Hepatitis B virus	11%
CC(=O)N[C@@H](CC(=O)O)C(=O)N[C@@H](C(=O)N[C@H](C(=O)N[C@@H](CCC(=O)O)C(=O)N[C@@H](CC1CCCCC1)C(=O)N[C@@H](CS)C(=O)C(=O)O)C(c1ccccc1)c1ccccc1)C(C)C	NS3/NS4A serine protease		Ki			Hepatitis C virus	22 µM
O=C(O)c1ccc2c(c1)nc(-c1ccc3c(c1)CCC(c1ccccc1)N3)n2C1CCCCC1	NS5B polymerase		inhibition	33 µM		Hepatitis C virus	99.25%
C=C[C@H]1C[C@@]1(NC(=O)[C@@H]1C[C@@H](Oc2cc(-c3ccccc3)nc3cc(OC)ccc23)CN1C(=O)[C@@H](NC(=O)O[C@@H]1CCOC1)C(C)(C)C)C(=O)NS(=O)(=O)C1(Cc2ccccc2)CC1	NS3/NS4A protease	BMS	IC50			Hepatitis C virus	<0.05 µM
COc1ccccc1-c1cc(-c2ccccc2)nc2cc(C(=O)O)nn12	RNA-dependent RNA polymerase		IC50			Hepatitis C virus	>10 µM
COc1ccc(-c2ccc(Cl)cc2)c(-c2ccc3cc(-c4nc5cc(C(=O)O)ccc5n4C4CCCC4)ccc3n2)c1	NS5B polymerase		inhibition	33 µM		Hepatitis C virus	99.2%
O=c1c(O)c(-c2ccc(O)c(O)c2)oc2cc(O)c(O)c(O)c12	RdRp	Genotype 1A	IC50		nucleotide incorporation	Hepatitis C virus	6.3 µM
CCSc1nc(N2CCN(C(=O)c3ccccc3)CC2)cc(N(C)c2ccc(N(C)C)cc2)n1	NS5B polymerase		inhibition	0.1 µg/mL		Hepatitis C virus	30–55%
CC(=O)N[C@@H](CC(=O)O)C(=O)N[C@H](CC(C(=O)O)C(=O)O)C(=O)N[C@@H](Cc1c[nH]c2cccc(C(=O)O)c12)C(=O)N[C@@H](CCC(=O)O)C(=O)N[C@@H](CCC(=O)O)C(=O)N[C@@H](CS)C(=O)C(=O)O	NS3/NS4A serine protease		Ki			Hepatitis C virus	0.0000092 µM
COc1nc(Nc2ccc3cn[nH]c3c2)nc(N2CCOCC2)n1	DNA polymerase		inhibition	1 µg/mL		Hepatitis B virus	58%
COCCNC(=O)c1ccc(C(=O)N2CCN(c3ncccc3NC(C)C)CC2)nc1	Reverse transcriptase		IC50			Hepatitis B virus	0.001 µg/mL
CCCCSc1nc(Nc2ccc(N(CC)CC)cc2)cc(N2CCN(C(=O)c3ncccn3)CC2)n1	NS5B polymerase		inhibition	0.1 µg/mL		Hepatitis C virus	30–55%
Cc1nc(C)c(-c2ccc3cc(-c4nc5cc(C(=O)O)ccc5n4C4CCCCC4)ccc3n2)s1	NS5B polymerase		inhibition	33 µM		Hepatitis C virus	96.59%
Cc1cc(F)c(S(=O)(=O)Nc2cc(-c3ccccc3)sc2C(=O)O)cc1C(=O)O	NS3 ATPase		IC50			Hepatitis C virus	>20 µM
C=CC1C[C@@]1(NC(=O)[C@@H]1C[C@@H](Oc2cc(-c3ccccc3)nc3cc(OC)ccc23)CN1C(=O)[C@@H](NC(=O)OC1(C(=O)OCC)CC1)C(C)(C)C)C(=O)NS(=O)(=O)C1(Cc2ccccc2)CC1	NS3/NS4A protease	BMS	IC50			Hepatitis C virus	0.05–0.5 µM
CCc1cc2c(C(=O)NC)c(-c3ccc(F)cc3)oc2cc1C1CCCN1C(C)=O	Nonstructural protein 5B		IC50			Hepatitis C virus	≤0.5 µM
Cc1ccc(C(=O)N(C)c2cc(-c3ccccc3C)sc2C(=O)O)cc1	NS3 ATPase		IC50			Hepatitis C virus	<5 µM

For reference, 4 entries again:

CC[C@@H]1C[C@]1(NC(=O)[C@@H]1C[C@@H](Oc2cc(-c3csc(NC(C)C)n3)nc3c(Cl)c(OCCN4CCOCC4)ccc23)CN1C(=O)[C@@H](NC(=O)OC1C[C@@H]2C[C@@H]2C1)C(C)(C)C)C(=O)O ; target: Nonstructural protein 3 protease ; strain: gt 3 ; endpoint: Ki ; read by: fluorescence ; organism: Hepatitis C virus ; value: 0.319 µM
Cc1ccc(C(=O)N(C)c2cc(-c3ccccc3C)sc2C(=O)O)cc1 ; target: NS3 ATPase ; endpoint: IC50 ; organism: Hepatitis C virus ; value: <5 µM
CC(=O)N[C@@H](CC(=O)O)C(=O)N[C@H](CC(C(=O)O)C(=O)O)C(=O)N[C@H](C(=O)N[C@@H](CCC(=O)O)C(=O)N[C@@H](Cc1c[nH]c2ccccc12)C(=O)N[C@@H](CS)C(=O)C(=O)O)C(c1ccccc1)c1ccccc1 ; target: NS3/NS4A serine protease ; endpoint: Ki ; organism: Hepatitis C virus ; value: 0.00003 µM
O=C(O)c1ccc2c(c1)nc(-c1ccc3nc(-c4cccc(O)c4)ccc3c1)n2C1CCCCC1 ; target: NS5B polymerase ; endpoint: inhibition ; tested at: 100 µM ; organism: Hepatitis C virus ; value: 101%

Rows are shuffled and stem from different studies. Inhibition is in % at the dose shown (toxicity tests: loss of growth or viability). An empty or dashed field is not shown. Two numbers with a dash give a range or band.